In general, IC50 refers to the midpoint of a concentration-inhibition curve.

The experiment has as its system HIV-1 (strain IIIB). Put plainly: Antiviral Activity Assay in MT4 Cells (propidium iodide based procedure). In kind it is cell-based. As to conditions: read-out: IC50 (MT-4 cells); MT4 cells infected with HIV-1 strain IIIB, 5 days; lower line of each compound's entry.

Regarding “N-[2-(3-[[(2R,3S)-3-([(3R,3aS,6aR)hexahydrofuro[2,3-b]furan-3-yloxy]carbonylamino)-2-hydroxy-4-phenylbutyl](cyclopentyloxy)amino]sulfonylanilino)ethyl]-O-methyl-N′-(nitro)isourea and N-[2-(3-[[(2R,3S)-3-([(3S,3aR,6aS)hexahydrofuro[2,3-b]furan-3-yloxy]carbonylamino)-2-hydroxy-4-phenylbutyl](cyclopentyloxy)amino]sulfonylanilino)ethyl]-O-methyl-N′-(nitro)isourea”, the IC50 is 100 to 500 nM.

The record behind these values is US20040097594A1 (priority 1998, published 2004).
